Compound potency records, mixed from different reports. Data source: NIAID ChemDB in PubChem.

Neighbouring rows are from separate reports.

smiles	organism	protein	test	endpoint	cell line	strain	dose	value
Cn1cc(NC(=O)c2cc(NC(=O)c3cc(NC(=O)c4cc(NC(=O)c5cc(NC=O)cn5C)cn4C)cn3C)cn2C)cc1C(=O)NCCC(=N)N	Vaccinia virus		culture	inhibition	BSC-1	Noguchi	50 µg/mL	57%
Nc1nc(=O)n([C@@H]2C=C(CO)[C@@H](O)[C@H]2O)cc1F	Cowpox virus		culture	EC50	VERO	CPX		1.35 µg/mL
Nc1ccn(C[C@@H](CO)OCP(=O)(O)O)c(=O)n1	Variola virus		culture	EC50	VERO	Isolate V70-222		12 µg/mL
CCOC(=O)[C@H](Cc1ccc(-c2nn[nH]n2)cc1)NC(=O)c1ccc2c(c1)nc(-c1ccoc1)n2C1CCCCC1	Poliovirus	RNA-dependent RNA polymerase	target	IC50				>25 µM
CCCCCCCCCCCCCCCCCC(=O)OC[C@@H](COP(=O)(O)OCCNCCO[C@@]1(C(=O)O)O[C@@H]([C@H](O)[C@H](O)CO)[C@H](NC(C)=O)[C@@H](O)[C@H]1F)OC(=O)CCCCCCCCCCCCCCCCC	Influenza A virus	Sialidase	target	IC50		H2N2 A/Swine/Italy/309/83		125 µM
Cn1cc(NC(=O)c2cc(NC(=O)c3cc(NC=O)cn3C)cn2C)cc1C(=O)NCCC(=N)N	Vaccinia virus		culture	inhibition	BSC-1	Noguchi	10 µg/mL	83%
COc1ccc(-c2nc3cc(C(=O)NC(C(=O)O)c4ccc(OC)c(OC)c4)ccc3n2C2CCCCC2)cc1	Poliovirus	RNA-dependent RNA polymerase	target	IC50				>25 µM
Nc1ccn(C[C@H]2COP(=O)(O)CO2)c(=O)n1	Variola virus		culture	EC50	VERO	Isolate Hinden		19 µg/mL
Nc1ncnc2c1ncn2[C@@H]1C=C(CO)[C@@H](O)[C@H]1O	Variola virus		culture	EC50	VERO	BSH		0.14 µg/mL
O=C(O)c1cccc(-c2nc3cc(C(=O)O)ccc3n2C2CCCCC2)c1	Poliovirus	RNA-dependent RNA polymerase	target	IC50				>25 µM
Nc1nccc2c1ncn2[C@@H]1C[C@H](CO)[C@@H](O)[C@H]1O	Variola virus		culture	EC50	VERO	Isolate Bangladesh		1.2 µg/mL
CN(C)CCCNC(=O)COc1ccc(-c2nc3cc(C(=O)NCc4ccc(S(N)(=O)=O)cc4)ccc3n2C2CCCCC2)cc1	Poliovirus	RNA-dependent RNA polymerase	target	IC50				>25 µM
CCCCCCCCCCCCCCCCCC(=O)OC[C@@H](COP(=O)(O)OCCNCCO[C@@]1(C(=O)O)O[C@@H]([C@H](O)[C@H](O)CO)[C@H](NC(C)=O)[C@@H](O)[C@H]1F)OC(=O)CCCCCCCCCCCCCCCCC	Influenza A virus	Sialidase	target	IC50		H9N2 A/DUCK/86/1/76		180 µM
CCCCCCCCCCCCC/C=C/[C@@H](O)[C@H](CO[C@@H]1O[C@H](CO)[C@H](O)[C@H](OS(=O)(=O)O)[C@H]1O)NC(=O)CCCCCCCCCCCCCCCCCCCCCCC	Influenza A virus	Sialidase	target	inhibition		H7N7 A/equine/Prague/56	200 µM	50.9%
O=C(O)COc1ccc2[nH]cc(CCNC(=O)c3ccc4c(c3)nc(-c3ccoc3)n4C3CCCCC3)c2c1	Poliovirus	RNA-dependent RNA polymerase	target	IC50				>25 µM

The first 2 rows once more:

| smiles | organism | protein | test | endpoint | cell line | strain | dose | value |
|---|---|---|---|---|---|---|---|---|
| Cn1cc(NC(=O)c2cc(NC(=O)c3cc(NC(=O)c4cc(NC(=O)c5cc(NC=O)cn5C)cn4C)cn3C)cn2C)cc1C(=O)NCCC(=N)N | Vaccinia virus |  | culture | inhibition | BSC-1 | Noguchi | 50 µg/mL | 57% |
| Nc1nc(=O)n([C@@H]2C=C(CO)[C@@H](O)[C@H]2O)cc1F | Cowpox virus |  | culture | EC50 | VERO | CPX |  | 1.35 µg/mL |

ICn is the concentration giving n% inhibition. Blank or dashed fields: not listed here. ECn: concentration that inhibits the pathogen or its effect by n%. Percent inhibition refers to the dose given; in toxicity tests it is the harm to the cells.